Anti-infective test results gathered from many reports (values: NIAID ChemDB through PubChem).

Shared fields: cytotoxicity tests; cells: HEL; endpoint: CC50

Rows are shuffled and stem from different studies.

CCOc1cccnc1SCc1ccccc1 ; result: >20 µg/mL
O=c1[nH]c(=O)n([C@@H]2O[C@H](CO)[C@@H](O)[C@@H]2O)cc1/C=C/Br ; result: >573 µM
O=c1[nH]c(=O)n([C@H]2C[C@H](O)[C@@H](CO)O2)cc1/C=C/Br ; result: 0.2 µg/mL
COc1ccc(OC)c(C=NNC(=O)COc2cccc3ccccc23)c1 ; result: 56.9 µg/mL
Cc1ccc(C)c(CSc2c(O)ccc[n+]2[O-])c1 ; result: 7.7 µg/mL
C[C@@H](NC(=O)C1(Cc2ccccc2)CCN1C(=O)OCc1ccccc1)C(=O)O ; result: 50 µM
Nc1nc2c(ncn2COC(CO)CO)c(=O)[nH]1 ; result: 133.5 µg/mL
Cc1cc(-c2cccc(C#N)c2)cn2c(CSCCc3ccccc3)cnc12 ; result: >50 µg/mL
N#CC(c1ccc(F)cc1)S(=O)c1cccc[n+]1[O-] ; result: 0.28 µg/mL
O=c1[nH]c(=O)n([C@H]2C[C@H](O)[C@@H](CO)O2)cc1/C=C/Cl ; result: >692 µM
C[C@H](NC(=O)N1C(=O)C[C@@]1(Cc1ccccc1)C(=O)O)c1ccccc1 ; result: 187 µM
Cc1ccc(CS(=O)(=O)c2c(C)ccc[n+]2[O-])c(C)c1 ; result: 11 µg/mL
COc1ccc2c(c1)OC1(C=C2)N(C)c2ccccc2C1(C)C ; result: 18.9 µM
Cc1ccc(C)c(CS(=O)c2cccc[n+]2[O-])c1C ; result: 1.2 µg/mL
NC1=NC2C(C=CN2CC(CO)CCO)C(=O)N1 ; result: 790 µM
CC(C)(C)OC(=O)[C@]1(Cc2ccccc2)CC(=O)N1C(=O)Nc1ccccc1 ; result: 118 µM
O=S(=O)(Cc1cccc(F)c1)c1cccc[n+]1[O-] ; result: 19 µg/mL
Nc1nc2c(ncn2COC(CO)CO)c(=O)[nH]1 ; result: 674.2 µM
O=C(COc1cccc2ccccc12)NN=Cc1c(O)ccc2ccccc12 ; result: 1.94 µg/mL
O=c1[nH]c(=O)n([C@H]2C[C@H](O)[C@@H](CO)O2)cc1C(F)(F)F ; result: 0.007 µg/mL
CN1c2ccc(Cl)cc2C(C)(C)C12C=Nc1c(ccc3ccccc13)O2 ; result: 107.5 µM
O=S(=O)(Cc1ccccc1Oc1ccccc1)c1cccc[n+]1[O-] ; result: 10 µg/mL
Nc1nccc2c1ncn2[C@@H]1C[C@H](O)[C@@H](O)[C@H]1O ; result: >200 µg/mL
Cc1nc2ccccn2c1NC(=O)Nc1ccccc1 ; result: >50 µg/mL
COc1cccc(-c2cc(C)cn3c(CSCCc4ccccc4)cnc23)c1 ; result: >50 µg/mL
Cc1c(S(=O)(=O)c2ccc(Cl)cc2)c(NC(=O)C(F)(F)F)n(Cc2ccc(Cl)cc2)c1C ; result: 50 µg/mL
Cc1ccc(C)c(C(C)S(=O)(=O)c2cc(C)cc[n+]2[O-])c1 ; result: 25 µg/mL
O=C(COc1cccc2ccccc12)NN=Cc1cccc(Cl)c1 ; result: 58.6 µg/mL
Nc1ccn(C[C@@H](CO)OCP(=O)(O)O)c(=O)n1 ; result: >250 µM
NC1(C23CC4CC(CC(C4)C2)C3)CCCC1 ; result: >50 µg/mL
Cc1cc(Br)cn2c(CSCCc3ccccc3)cnc12 ; result: 28 µg/mL
O=S(Cc1ccccc1)c1cccc[n+]1[O-] ; result: >50 µg/mL
CC#Cc1cn([C@@H]2O[C@H](CO)[C@@H](O)[C@@H]2O)c(=O)[nH]c1=O ; result: 709 µM
Cc1ccc[n+]([O-])c1SCc1c(Cl)cccc1Cl ; result: 31 µg/mL
Cc1oc(NC(=O)C(F)(F)F)c(S(=O)(=O)c2ccc(Cl)cc2)c1C ; result: 46 µg/mL
COCC(c1cc(C)ccc1C)S(=O)(=O)c1ccccn1 ; result: ≥100 µg/mL
O=C(COc1cccc2ccccc12)NN=Cc1ccc(Br)cc1 ; result: 100 µg/mL
COC(=O)[C@@H](C)NC(=O)C1(Cc2ccccc2)CCN1C(=O)OCc1ccccc1 ; result: 33 µM
Cc1cc(-c2ccc(C#N)cc2)cn2c(CSCCc3ccccc3)cnc12 ; result: 10.6 µg/mL
C[C@@H](NC(=O)C1(Cc2ccccc2)CCN1C(=O)OCc1ccccc1)C(=O)OC(C)(C)C ; result: 37 µM
C1CNC(C23CC4CC(CC(C4)C2)C3)C1 ; result: ≥200 µg/mL
CCCCCCCCc1cc2cn(C3CCCC3)c(=O)nc2o1 ; result: >200 µM
O=[N+]([O-])c1ccccc1CS(=O)(=O)c1cccc[n+]1[O-] ; result: 13 µg/mL
Nc1nc2c(ncn2COCCO)c(=O)[nH]1 ; result: 888 µM
N#C/C(=C/c1ccc(Cl)cc1Cl)Sc1cccc[n+]1[O-] ; result: 3.5 µg/mL
CNC(=O)[C@@H](C)NC(=O)C1(Cc2ccccc2)CCN1C(=O)OCc1ccccc1 ; result: >200 µM
OCCSCc1c(-c2ccccc2)nc2ccccn12 ; result: 80 µg/mL
CCCCCCCc1cc2cn(CCC(C)C)c(=O)nc2o1 ; result: >200 µM
O=S(=O)(Cc1ccc(Cl)cc1Cl)c1cccc[n+]1[O-] ; result: 6.2 µg/mL
O=C(COc1cccc2ccccc12)NN=Cc1ccccc1O ; result: 3.57 µg/mL
Cc1nc2ccccn2c1NC(=O)c1ccccc1 ; result: >50 µg/mL
O=S(=O)(Cc1ccc(-c2ccccc2)cc1)c1cccc[n+]1[O-] ; result: 4.6 µg/mL
CCN1CCCC1C12CC3CC(CC(C3)C1)C2 ; result: >50 µg/mL
Cc1cccc(CS(=O)c2cccc[n+]2[O-])c1 ; result: 37 µg/mL
Cc1cc(-c2ccc(O)cc2)c2ncc(CSCCc3ccccc3)n2c1 ; result: 13.7 µg/mL
Cc1cc(C)c(CS(=O)c2cccc[n+]2[O-])c(C)c1 ; result: 12 µg/mL
O=c1[nH]c(=O)n([C@H]2C[C@H](O)[C@@H](CO)O2)cc1/C=C/Br ; result: 489 µM
CCCCCCCCCCCC(Sc1cccc[n+]1[O-])c1cc(C)ccc1C ; result: >20 µg/mL
Nc1nc2c(ncn2COCCO)c(=O)[nH]1 ; result: >200 µg/mL
CCCCCCCCOc1ccc(/C=C(/C#N)Sc2cccc[n+]2[O-])cc1 ; result: 35 µg/mL
CCCCCCc1cc2cnc(OC3CCCCC3)nc2o1 ; result: >50 µM
Cc1ccn2c(COCCO)cnc2c1 ; result: >200 µg/mL
CCCCCCCCCCc1cc2cn(C3CCCO3)c(=O)nc2o1 ; result: >200 µM
N#CC1=C(c2ccccc2)Nc2sccc2S1(=O)=O ; result: >50 µg/mL

5 of the rows above, restated:

SMILES,result
COc1cccc(-c2cc(C)cn3c(CSCCc4ccccc4)cnc23)c1,>50 µg/mL
O=[N+]([O-])c1ccccc1CS(=O)(=O)c1cccc[n+]1[O-],13 µg/mL
CCCCCCCCOc1ccc(/C=C(/C#N)Sc2cccc[n+]2[O-])cc1,35 µg/mL
O=c1[nH]c(=O)n([C@H]2C[C@H](O)[C@@H](CO)O2)cc1/C=C/Br,0.2 µg/mL
COc1ccc2c(c1)OC1(C=C2)N(C)c2ccccc2C1(C)C,18.9 µM

CCn: concentration that lowers growth or viability of the cells by n%.